Results of unrelated studies side by side (data: NIAID ChemDB).

Common to all: whole-cell or culture tests; organism: HIV-1; cells: PBL; measure: EC50

Blank or dashed fields: not listed here. ECn is the concentration giving n% inhibition of infection, replication or growth. Rows are shuffled and stem from different studies.

compound	strain or isolate	read by	result
COc1ccccc1N1CCN(c2c(F)cc3c(=O)c(C(=O)O)cn(-c4cccc(N5CCOCC5)c4)c3c2Cl)CC1	-	syncytia	0.7 µM
CSCC[C@H](N)C(=O)N[C@H](C(=O)N[C@@H](CC(C)C)C(=O)N[C@@H](CC(N)=O)C(=O)N[C@@H](Cc1ccccc1)C(=O)O)[C@@H](C)O	-	syncytia	>200 µg/mL
CCn1c(C)c(C(=O)OC)c(C(=O)OC)c1Cc1ccccc1	IIIB	p24 / ELISA	2.3 µM
CC(C)[C@H](NC(=O)[C@H](Cc1cccc2ccccc12)CS(=O)(=O)C(C)(C)C)C(=O)N[C@@H](Cc1ccccc1)[C@@H](O)CN1[C@H](C)CC[C@H]1C(F)(F)F	-	-	0.547 µM
O=C(O)c1cn(-c2ccc(Cn3cncn3)cc2)c2cc(N3CCN(c4ccc(F)cc4F)CC3)c(F)cc2c1=O	-	syncytia	0.2 µM
CC(C)[C@H](NC(=O)[C@H](Cc1cccc2ccccc12)CS(=O)(=O)C(C)(C)C)C(=O)N[C@@H](Cc1ccccc1)[C@@H](O)CN1CCCC[C@H]1C(F)(F)F	-	-	>1 µM
Nc1ncnc2c1ncn2[C@@H]1O[C@H](COP(=O)(O)O[C@@H]2[C@H](O)[C@@H](COP(=O)(O)O[C@@H]3[C@H](O)[C@@H](CO)O[C@H]3n3cnc4c(N)ncnc43)O[C@H]2n2cnc3c(N)ncnc32)[C@@H](O)[C@H]1O	IIIB	syncytia	>300 µM
Cc1c(C(=O)O)c(C(=O)c2ccccc2F)c(C)n1C	IIIB	p24 / ELISA	>10 µM
CC(C)Oc1ccccc1N1CCN(c2ccc3c(=O)c(C(=O)O)cn(-c4ccc(Cn5cncn5)cc4)c3c2)CC1	-	syncytia	0.3 µM
C[C@H]1CC[C@H](C(F)(F)F)N1C[C@@H](O)[C@H](Cc1ccccc1)NC(=O)[C@H](CC(N)=O)NC(=O)c1ccc2ccccc2n1	-	-	0.68 µM
CC(=O)N[C@@H](CC(C)C)C(=O)N[C@H](C(=O)N[C@@H](CC(C)C)C(=O)N[C@@H](CC(N)=O)C(=O)N[C@@H](Cc1ccccc1)C(=O)O)[C@@H](C)O	-	syncytia	>200 µg/mL
COC(=O)c1c[nH]c(Cc2ccccc2)c1C(=O)OC	IIIB	p24 / ELISA	>10 µM
CC(C)[C@H](NC(=O)[C@H](Cc1cccc2ccccc12)CS(=O)(=O)C(C)(C)C)C(=O)N[C@@H](Cc1ccccc1)[C@@H](O)C(O)CN1CCC[C@H]1C(F)(F)F	-	-	17 µM
CC[C@H](C)[C@H](NC(C)=O)C(=O)NCC(=O)N[C@@H](CC(C)C)C(=O)N[C@H](C(=O)N[C@@H](CC(C)C)C(=O)N[C@@H](CC(N)=O)C(=O)N[C@@H](Cc1ccccc1)C(=O)O)[C@@H](C)O	-	syncytia	>200 µg/mL
O=C(O)c1cn(-c2cccc(N3CCOCC3)c2)c2c(Cl)c(N3CCN(c4ccccc4)CC3)c(F)cc2c1=O	-	syncytia	0.4 µM
CCn1c(C)c(C(=O)OC)c(C(=O)OC)c1CC(C)C	IIIB	p24 / ELISA	>10 µM
O=C(O)c1cn(-c2cccc(N3CCOCC3)c2)c2cc(N3CCN(c4ccc(F)cc4)CC3)c(F)cc2c1=O	-	syncytia	0.3 µM
CC1CN(c2cc3c(cc2F)c(=O)c(C(=O)O)cn3-c2ccc(Cn3cncn3)cc2)CCN1c1ccccc1	-	syncytia	0.2 µM
O=C(O)c1cn(-c2ccccc2N2CCOCC2)c2c(Cl)c(N3CCN(c4ccc(F)cc4)CC3)c(F)cc2c1=O	-	syncytia	0.6 µM
Cc1cccc(N2CCN(c3ccc4c(=O)c(C(=O)O)cn(-c5ccc(Cn6cncn6)cc5)c4c3)CC2)c1	-	syncytia	0.12 µM
CCOC(=O)c1c(C(=O)c2ccccc2F)c(C)n(C)c1C	IIIB	p24 / ELISA	>10 µM
O=C(O)c1cn(-c2cccc(N3CCOCC3)c2)c2cc(N3CCN(c4ccccc4)CC3)c(F)cc2c1=O	-	syncytia	0.6 µM
COC(=O)c1c(C(=O)OC)c(C)n(-c2ccccc2)c1C	IIIB	p24 / ELISA	>10 µM
COc1ccccc1N1CCN(c2ccc3c(=O)c(C(=O)O)cn(-c4ccc(Cn5cncn5)cc4)c3c2)CC1	-	syncytia	0.1 µM
COC(=O)c1c(C(=O)OC)c2n(c1C)Cc1ccccc1C2	IIIB	p24 / ELISA	>10 µM
CC(C)C[C@H](NC(=O)[C@@H](N)[C@@H](C)O)C(=O)N[C@@H](CC(N)=O)C(=O)N[C@@H](Cc1ccccc1)C(=O)O	-	syncytia	>200 µg/mL
O=C(O)c1cn(-c2ccc(Cn3cncn3)cc2)c2cc(N3CCN(c4ccc(Cl)c(Cl)c4)CC3)c(F)cc2c1=O	-	syncytia	0.3 µM
NC(=O)C[C@H](NC(=O)c1ccc2ccccc2n1)C(=O)N[C@@H](Cc1ccccc1)[C@H](O)CN1CCC[C@H]1C(F)(F)F	-	-	0.87 µM
COc1cccc(N2CCN(c3ccc4c(=O)c(C(=O)O)cn(-c5ccc(Cn6cncn6)cc5)c4c3)CC2)c1	-	syncytia	0.7 µM
O=C(O)c1cn(-c2ccccc2N2CCOCC2)c2cc(N3CCN(c4ccc(F)cc4)CC3)c(F)cc2c1=O	-	syncytia	0.7 µM
CSc1ccccc1N1CCN(c2ccc3c(=O)c(C(=O)O)cn(-c4ccc(Cn5cncn5)cc4)c3c2)CC1	-	syncytia	0.09 µM
CCOC(=O)c1cc(-c2ccc(OC)cc2)n(-c2ccccc2)c1C	IIIB	p24 / ELISA	>10 µM

Repeating the first 4 entries:

COc1ccccc1N1CCN(c2c(F)cc3c(=O)c(C(=O)O)cn(-c4cccc(N5CCOCC5)c4)c3c2Cl)CC1 ; read by: syncytia ; result: 0.7 µM
CSCC[C@H](N)C(=O)N[C@H](C(=O)N[C@@H](CC(C)C)C(=O)N[C@@H](CC(N)=O)C(=O)N[C@@H](Cc1ccccc1)C(=O)O)[C@@H](C)O ; read by: syncytia ; result: >200 µg/mL
CCn1c(C)c(C(=O)OC)c(C(=O)OC)c1Cc1ccccc1 ; strain or isolate: IIIB ; read by: p24 / ELISA ; result: 2.3 µM
CC(C)[C@H](NC(=O)[C@H](Cc1cccc2ccccc12)CS(=O)(=O)C(C)(C)C)C(=O)N[C@@H](Cc1ccccc1)[C@@H](O)CN1[C@H](C)CC[C@H]1C(F)(F)F ; result: 0.547 µM